From PMC10303846, “In vitro antiplasmodial activity and toxicological profile of extracts, fractions and chemical constituents of leaves and stem bark from Dacryodes edulis (Burseraceae)” (BMC Complementary Medicine and Therapies, 2023)

Tested on: RAW 264.7 cells
Experiment: Resazurin-based in vitro cytotoxicity assay
Assay type: cell-based
Conditions: for SI Pf3D7: CC50 Raw cells / IC50 Pf3D7; for SI PfDd2: CC50 Raw cells / IC50 PfDd2
Protocol: The cytotoxicity profile of extracts, fractions and isolated compounds was assessed using the resazurin-based assay essentially as previously described against RAW 264.7 cells duly cultivated in complete Dulbecco′s Modified Eagle′s Medium (DMEM) that contain 13.5 g/L of DMEM (Sigma Aldrich), 10% fetal bovine serum (Sigma Aldrich), 0.2% sodium bicarbonate (w/v) (Sigma Aldrich) and 50 μg/mL of gentamicin (Sigma Aldrich). Globally, macrophages (Raw cells) were seeded into 96-well cell-culture flat-bottomed plates at a density of 10^4 cells in 100 μL of complete medium/well and placed in incubation for 24 h at 37℃, and 5% CO2 allowing cell adhesion. Following cell adhesion, ten microliters of each serially diluted test sample solution was added to assay plates and left in incubation for 48 h under the same experimental conditions. Growth control (1% DMSO-100% growth) and positive control wells (podophyllotoxin at 20 μM) were included in the experimental plates. Cell proliferation was checked by adding 10 μL of a stock solution of resazurin (0.15 mg/mL in sterile PBS) to each well followed by an additional incubation of 4 h in the same culture conditions. Fluorescence was then read using Tecan Infinite M200 fluorescence multiwell plate reader (Tecan) at an excitation/emission of 530/590 nm. The results were expressed as 50% cytotoxic concentrations (CC50) and selectivity indices (CC50 Mammalian cell/IC50 Pf3D7) were calculated for each test substance.

Structure (SMILES) | SI Pf3D7 | SI PfDd2
COc1c(O)cc2c(=O)oc3c(OC)c(O)cc4c(=O)oc1c2c34 [compound 3, 3,3′-O-dimethylellagic acid] | > 85 | > 74
COc1c(O)cc2c(=O)oc3c(OC)c(OC4OCC(O)C(OC(=O)c5cc(O)c(O)c(O)c5)C4O)cc4c(=O)oc1c2c34 [compound 5, 3,3″-di-O-methylellagic acid 4-O-(3″-galloyl)-β-D-xylopyranoside] | > 87 | –
CCOC(=O)c1cc(O)c(O)c(O)c1 [compound 10, Ethyl gallate] | > 87 | > 35
